Test results from patent US20160287666A1.

B1: NV1G2057 (peptide)
peptide: GPQCQKWMQTCDRERKCCEGFVCTLWCRKKLWGSAPAPAPAPAPGSCCNCSSKWCRDHSRCC
modifications: not checked
B2: NV1G1954 (peptide)
peptide: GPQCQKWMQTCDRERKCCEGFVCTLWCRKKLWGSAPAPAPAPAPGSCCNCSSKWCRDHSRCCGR
modifications: not checked
B3: NV1G1969 (peptide)
peptide: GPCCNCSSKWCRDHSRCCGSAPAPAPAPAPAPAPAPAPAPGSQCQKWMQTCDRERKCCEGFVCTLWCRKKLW
modifications: not checked
B4: NV1G1972 (peptide)
peptide: GPGWCGDPGATCGKLRLYCCSGFCDAYTKTCKDKSSAGGGGSAPAPAPAPAPAPAPAPAPAPAPAPAPAPAPGGGGSQCQKWMQTCDRERKCCEGFVCTLWCRKKLW
modifications: not checked
B5: NV1G1974 (peptide)
peptide: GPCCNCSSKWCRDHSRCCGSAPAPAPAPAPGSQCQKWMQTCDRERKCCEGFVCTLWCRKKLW
modifications: not checked

These binders were tested against human Nav1.7 (human), Q15858 (assay: cell-based or functional assay).

B1 and B2 are within 1.5-fold of each other in Nav1.7 IC50 (nM), FLIPR Tetra: 50.6 nM for the first, 60.9 nM for the second.

B1 showed a hNav1.7 QP % blk @ 30 nM of 22.2%.

With B1 the hNav1.7 TETRA IC50 was 50.6 nM.

GPSPGARAFAPAPAQCQKWMQTCDRERKCCEGFVCTLWCRKKLW (modifications not checked) [NV1G1961] and GPQCQAWMQTCDRERKCCEGFVCTLWCRKKLW (modifications not checked) [NV1G1771] are within 1.5-fold of each other in Nav1.7 IC50 (nM), FLIPR Tetra membrane depolarization: 68 nM for the first, 70.6 nM for the second.

GPACQKWMQTCDRNRKCCEGFSCTLWCRKKLW (modifications not checked) [NV1G1867] and GPQCQKWMQTCDRERKCCEGFVCTLWCRKTLW (modifications not checked) [NV1G1806] are within 1.5-fold of each other in Nav1.7 IC50 (nM), FLIPR Tetra membrane depolarization: 76 nM for the first, 79.1 nM for the second.

GPQCQKWMQTCDRERKCCEGFVCTLWCRKKLD (modifications not checked) [NV1G1793] and GPYCQKWMQTCDAERKCCEGFSCTLWCKKKLW (modifications not checked) [NV1G1862] are within 1.5-fold of each other in Nav1.7 IC50 (nM), FLIPR Tetra membrane depolarization: 80.9 nM for the first, 100 nM for the second.

B3 and GPQRFVTGHFGGLYPANGQCQKWMQTCDRERKCCEGFVCTLWCRKKLW (modifications not checked) [NV1G1980] are within 1.5-fold of each other in Nav1.7 IC50 (nM), FLIPR Tetra membrane depolarization: 100 nM for the first, 101 nM for the second.

GPQCQKWMQTCDRERKCCEGFVCTLWCRKSLW (modifications not checked) [NV1G1850] and GPRRRRRRRRRRRQCQKWMQTCDRERKCCEGFVCTLWCRKKLW (modifications not checked) [NV1G1981] are the same in Nav1.7 IC50 (nM), FLIPR Tetra membrane depolarization: 102 nM for the first, 102 nM for the second.

GPQCQKWMQTCDRERKCCERFVCTLWCRKKLW (modifications not checked) [NV1G1851] and GPQCQKWMQTCDEERKCCEGFVCTLWCRKKLW (modifications not checked) [NV1G1922] are the same in Nav1.7 IC50 (nM), FLIPR Tetra membrane depolarization: 108 nM for the first, 108 nM for the second.

GPQCQDWMQTCDRERKCCEGFVCTLWCRKKLW (modifications not checked) [NV1G1778] and B4 are within 1.5-fold of each other in Nav1.7 IC50 (nM), FLIPR Tetra membrane depolarization: 109 nM for the first, 110 nM for the second.

Compared with B5, GPQCQKWMQTCKRKEKCCEGFVCTLWCRKKLW (modifications not checked) [NV1G1844] is 1.6-fold higher in Nav1.7 IC50 (nM), FLIPR Tetra membrane depolarization: 110 nM for the first, 180 nM for the second.

With GPQCQKWMQTCDARRKCCEGFVCRLWCKKKLW (modifications not checked) [NV1G1519] the hNav1.7 QP % blk @ 10 nM was 52.3%.

Work on GPCRTIGPSVCQCQKWMQTCDRERKCCEGFVCTLWCRKKLW (modifications not checked) [NV1G2043] yielded a hNav1.7 QP IC50 of 58.7 nM.
